RC index of single-base changes in HIV-1 RT

Protein: RT of HIV-1 NL4-3, numbered from its first residue.
Effects on overlapping genes or RNA elements are not listed.

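Random point mutant libraries of HIV-1 NL4-3, one for each of seven fragments, were passaged in CEM T lymphocytes. The RC index is the frequency of a change after passage round 2 divided by its frequency in the plasmid library.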

RC index: lower means poorer replication; rough cut-offs are 0.1 (lethal) and 0.2 (tolerated).
Each entry names the wild-type residue, its position and the residue put in its place.
Base changes are numbered along pNL4-3.

substitution,base,RC
K550I,A4198T,0.0349
L525S,T4123C,0.157
P392S,C3723T,0.113
K20E,A2607G,0.0275
Y427H,T3828C,0.0586
E478V,A3982T,0.0451
E516D,G4097C,0.0662
T362N,C3634A,0.108
N175D,A3072G,0.0510
T377S,A3678T,0.0478
P294R,C3430G,0.335
E430G,A3838G,0.0998
E298D,A3443C,0.0675
I37T,T2659C,0.0675
C38R,T2661C,0.0527
M16I,G2597T,0.228
G544R,G4179A,0.372
E415V,A3793T,0.0338
L209R,T3175G,0.104
A62P,G2733C,0.166
N54I,A2710T,0.0209
V111A,T2881C,0.0263
E28K,G2631A,0.278
E529K,G4134A,4.16
M184T,T3100C,0.0476
Q258L,A3322T,0.0184
G490R,G4017A,0.300
W535C,G4154T,0.0592
A62S,G2733T,0.175
A400S,G3747T,0.0561
T107A,A2868G,0.0292
V90I,G2817A,0.0968
A129S,G2934T,0.0765
V466D,T3946A,0.0346
A502V,C4054T,0.192
N147I,A2989T,0.0273
G141R,G2970A,0.475
Q509R,A4075G,0.0682
A272E,C3364A,0.0572
E523K,G4116A,0.424
K465T,A3943C,0.0150
W426R,T3825C,0.0400
K238R,A3262G,0.0112
E413D,G3788C,0.0279
I274T,T3370C,0.0279
A400T,G3747A,0.0969
V35L,G2652C,0.0642
V458I,G3921A,0.246
T409S,A3774T,0.0288
I482F,A3993T,0.0505
P59T,C2724A,0.112
S515T,T4092A,0.0244
M184V,A3099G,0.0848
G18V,G2602T,0.0804
E514V,A4090T,0.0401
P468S,C3951T,0.0672
E44D,A2681T,0.0650
H361Y,C3630T,0.181
S3I,G2557T,0.0612
K527N,A4130T,0.0439
H221R,A3211G,0.0671
K219E,A3204G,0.0595
H198N,C3141A,0.109
P236H,C3256A,0.0552
K22I,A2614T,0.0363
Q507H,A4070C,0.178
K201T,A3151C,0.0529
E28D,A2633T,0.0272
E89V,A2815T,0.0308
M357I,G3620A,0.960
V261L,G3330T,0.0311
N363I,A3637T,0.0213
E396G,A3736G,0.0724
M357T,T3619C,0.0555
A437E,C3859A,0.0745
P421L,C3811T,0.174
G141W,G2970T,0.170
G15A,G2593C,0.297

A selection of 9 entries from above:

substitution,base,RC
Q507H,A4070C,0.178
T362N,C3634A,0.108
A400S,G3747T,0.0561
N363I,A3637T,0.0213
V261L,G3330T,0.0311
G15A,G2593C,0.297
E89V,A2815T,0.0308
K465T,A3943C,0.0150
V90I,G2817A,0.0968

Since each clone held several changes (about five per kb), neutral changes can read low.
The authors read an index above 1 as above wild type (1.9% of all changes in the genome).

Reference: Al-Mawsawi et al. 2014, doi:10.1186/s12977-014-0124-6.